Results of unrelated studies side by side (data: NIAID ChemDB).

Common to all: growth or infection tests; species: Mycobacterium tuberculosis

Inhibition is in % at the dose shown (toxicity tests: loss of growth or viability). MIC50, MIC90 and the like: level of inhibition, or share of isolates inhibited. MIC bound comes from a single tested concentration. An empty or dashed field is not shown. Neighbouring rows are from separate reports. ECn is the concentration giving n% inhibition of infection, replication or growth.

SMILES	read-out	mutations	strain	dose	read by	cells	value
Oc1ccccc1CNCCCCCCCCCCCCNCc1ccccc1O	MIC	-	H37Ra	-	-	-	<25 µg/mL
CO[C@H]1/C=C/O[C@@]2(C)Oc3c(C)c(O)c4c(O)c(c(/C=N/N5CCN(C6CCCC6)CC5)c(O)c4c3C2=O)NC(=O)/C(C)=C\C=C\[C@H](C)[C@H](O)[C@@H](C)[C@@H](O)[C@@H](C)[C@H](OC(C)=O)[C@@H]1C	MIC	-	13267	-	-	-	<0.01 µg/mL
CO[C@H]1/C=C/O[C@@]2(C)Oc3c(C)c(O)c4c(O)c(c(/C=N/N5CCN(C/C=C/c6ccccc6)CC5)c(O)c4c3C2=O)NC(=O)/C(C)=C\C=C\[C@H](C)[C@H](O)[C@@H](C)[C@@H](O)[C@@H](C)[C@H](OC(C)=O)[C@@H]1C	MIC	-	MTB33 (RIF-R)	-	-	-	1 µg/mL
CC1=C(C(=O)Nc2cc(C)ccc2C)C(c2ccccc2O)C(C(=O)Nc2cc(C)ccc2C)=C(C)N1	MIC	-	H37Rv	-	-	-	>12.5 µg/mL
COC(=O)c1coc(CSc2nc(N)c3c4c(sc3n2)CC(C(C)(C)C)CC4)n1	MIC	-	H37Rv	-	MTT / visual reading	-	6.2 µg/mL
CC(=O)Nc1ccc(/C=N/NC(N)=S)cc1F	MIC90	Ciprofloxacin-resistant	H37Rv	-	resazurin	-	<0.1 µg/mL
Cc1ccc(NC(=O)c2c(N)sc3c2CCCC3)cc1	MIC	-	H37Rv	-	resazurin	-	100 µg/mL
CC(C)N=c1cc2n(-c3ccc(Cl)cc3)c3ccccc3nc-2cc1Nc1ccc(Cl)cc1	MIC90	-	H37Rv	-	fluorescence	-	0.25 µg/mL
CCNC(=O)c1c(NC(=O)c2c(F)c(F)c(F)c(F)c2F)sc2c1CCN(CC)C2	EC90	rpoB S522L mutant	H37Rv	-	turbidity	-	9.3 µM
CC(=O)OC1C2CC(C)(C)CC2=C(C=O)C2(C=O)CC12C	inhibition	-	H37Rv	12.5 µg/mL	BACTEC	-	9%
CC1=C(C(=O)Nc2cccc([N+](=O)[O-])c2)C(c2ccccc2O)C(C(=O)Nc2cccc([N+](=O)[O-])c2)=C(C)N1	MIC	-	H37Rv	-	-	-	<12.5 µg/mL
CCCCNC(CC(=O)OCC)c1cccc(Cl)c1	MIC	-	H37Ra	-	-	-	>25 µg/mL
O=C1NC(NNC(=O)c2ccncc2)=N/C1=C\c1ccccc1Cl	MIC	-	ATCC 35822 (isoniazid-resistant)	-	-	-	50 µg/mL
CO[C@H]1/C=C/O[C@@]2(C)Oc3c(C)c(O)c4c(O)c(c(/C=N/N5CCN(C)CC5)c(O)c4c3C2=O)NC(=O)/C(C)=C\C=C\[C@H](C)[C@H](O)[C@@H](C)[C@@H](O)[C@@H](C)[C@H](OC(C)=O)[C@@H]1C	MIC	-	H37Rv	-	-	-	2.5 µg/mL
CCCCCCCCCCCCCCCCNC(=S)N/N=C/c1ccc(NC(C)=O)cc1	MIC	-	H37Rv	-	BACTEC	-	12.5 µg/mL
Oc1ccccc1CNCCCCCCCNCc1ccccc1O	MIC	-	Sensitive strains	-	-	-	25 µg/mL
O=C1NC(NNC(=O)c2ccncc2)=N/C1=C\c1cccc(Cl)c1	MIC	-	ATCC 35822 (isoniazid-resistant)	-	-	-	25 µg/mL
CCCCCCCCNCc1ccncc1	MIC	-	H37Ra	-	-	-	<25 µg/mL
CCOC(=O)NC(CC)c1ccc2oc3ccccc3c2c1	MIC bound	-	H37Rv	-	BACTEC	-	>12.5 µg/mL
O=C(O)c1cn(C2CC2)c2c(F)c(N3CCSCC3)c(F)cc2c1=O	MIC	-	CSU28	-	-	-	2 µg/mL
CCN1CCc2c(sc(NC(=O)c3c(F)c(F)c(F)c(F)c3F)c2C#N)C1	EC50	-	ATCC 35822	-	turbidity	-	7.1 µM
CN(C)CNC(=S)S	inhibition	-	H37Rv	12.5 µg/mL	BACTEC	-	99%
CC(C)(C)C1CCc2c(sc3nc(SCC(=O)OCC4CCCCC4)nc(N)c23)C1	MIC	-	H37Rv	-	MTT / visual reading	-	0.78 µg/mL
CC1=C(C(=O)Nc2ccc(F)cc2)C(c2ccc(Cl)cc2)C(C(=O)Nc2ccc(F)cc2)=C(C)N1	MIC	-	H37Rv	-	-	-	>6.25 µg/mL
CCN1CCc2c(sc(NC(=O)c3c(F)c(F)c(F)c(F)c3F)c2C(N)=O)C1	MIC	-	H37Rv	-	resazurin	-	3.5 µM
CCCCCCCCNC(CC(=O)OCC)c1cccc(Cl)c1	MIC	-	Sensitive strains	-	-	-	12.5 µg/mL
Cc1c2ccncc2c(C)c2c1sc1ccccc12	MIC	-	H37Rv	-	resazurin	-	0.78 µg/mL
O=C1NC(NNC(=O)c2ccncc2)=N/C1=C\c1c(Cl)cccc1Cl	EC50	-	H37Rv	-	resazurin	-	>12.5 µg/mL
Cn1c(NNc2nc(Nc3ccccn3)nc(Nc3ccccn3)n2)nc(-c2ccc(Cl)cc2)c(C#N)c1=O	MIC	-	H37Rv	-	-	-	>12.5 µg/mL
O=C1CSC(c2ccc(Cl)cc2)N1NC1=Nc2ccccc2Sc2ccccc21	MIC	-	H37Rv	-	broth dilution	-	100 µg/mL
CCCCCCCCNCc1ccccc1[N+](=O)[O-]	MIC	-	Sensitive strains	-	-	-	12.5 µg/mL
Cn1c(NNc2nc(Nc3ccc(Cl)cc3Cl)nc(Nc3ccc(Cl)cc3Cl)n2)nc(-c2ccc(Cl)cc2)c(C#N)c1=O	MIC	-	H37Rv	-	-	-	>12.5 µg/mL
O=C1c2cccc(NCC3CO3)c2C(=O)c2cccc(NCC3CO3)c21	MIC bound	-	H37Rv	-	BACTEC	-	≤12.5 µg/mL
Cn1c(NNc2nc(Nc3ccccn3)nc(Nc3ccccn3)n2)nc(-c2ccccc2)c(C#N)c1=O	MIC	-	H37Rv	-	-	-	>12.5 µg/mL
CC1=CC(C/C(C)=C/COc2ccc3ccc(=O)oc3c2)OC1=O	MIC	-	H37Rv	-	BACTEC	-	≥12.5 µg/mL
CCNc1nc(NCC)nc(NNc2nc(-c3ccc(Cl)cc3)c(C#N)c(=O)n2C)n1	inhibition	-	H37Rv	12.5 µg/mL	-	-	69%
C=CC1CN2CCC1CC2C(OC(=O)C(O)c1ccccc1)c1ccnc2ccccc12	MIC bound	-	H37Rv	-	resazurin	-	>6.25 µg/mL
O=C1[C@H](Cl)[C@H](c2cccc([N+](=O)[O-])c2)N1NC1=Nc2ccccc2Sc2ccccc21	MIC	-	H37Rv	-	broth dilution	-	1000 µg/mL
C1CCNCC1.S=C(S)N1CCCCC1	MIC	-	INH-r	-	-	-	0.4 µg/mL
CN(C)c1ccc(C2SCC(=O)N2NC2=Nc3ccccc3Sc3ccccc32)cc1	MIC	-	H37Rv	-	broth dilution	-	1000 µg/mL
Cn1c(NNc2nc(Nc3cc(Cl)cc(Cl)c3)nc(Nc3cc(Cl)cc(Cl)c3)n2)nc(-c2ccccc2)c(C#N)c1=O	inhibition	-	H37Rv	12.5 µg/mL	-	VERO	98%
CO[C@H]1/C=C/O[C@@]2(C)Oc3c(C)c(O)c4c(O)c(c5c(c4c3C2=O)NC2(CCN(CC(C)C)CC2)N=5)=NC(=O)/C(C)=C\C=C\[C@H](C)[C@H](O)[C@@H](C)[C@@H](O)[C@@H](C)[C@H](OC(C)=O)[C@@H]1C	MIC	-	CSU22	-	-	-	4 µg/mL
CC1=C(C(=O)Nc2ccc(Cl)cc2)C(c2cccc([N+](=O)[O-])c2)C(C(=O)Nc2ccc(Cl)cc2)=C(C)N1	MIC	-	H37Rv	-	-	-	>12.5 µg/mL
Nc1ccc(N=Nc2cccc3c(N=Nc4ccc(N)nc4N)cccc23)c(N)n1	MIC bound	-	H37Rv	-	resazurin	-	>6.25 µg/mL
CCOC(=O)C(C)Sc1nc(N)c2c3c(sc2n1)CC(C(C)(C)C)CC3	MIC	-	H37Rv	-	MTT / visual reading	-	6.2 µg/mL
COC(=O)C1=C(C)N(c2cccc(C)c2)C(C)=C(C(=O)OC)C1c1ccc(Cl)cc1	MIC	-	H37Rv	-	-	-	>6.25 µg/mL
CCOC(=O)C(C)(C)Sc1nc(N)c2c3c(sc2n1)CC(C(C)(C)C)CC3	MIC	-	H37Rv	-	MTT / visual reading	-	>200 µg/mL
CNC(=O)C1CCCN1C(=O)C(Cl)Cl	MIC bound	-	H37Rv	-	BACTEC	-	>12.5 µg/mL
CCOC(=O)c1c(NC(C)=O)sc2c1CCN(C(=O)OC(C)(C)C)C2	MIC	-	H37Rv	-	resazurin	-	>100 µg/mL
C=C1C(=O)[C@@]23CC[C@H]4C(C)(CCC[C@@]4(C)C(=O)OC)[C@@H]2CC[C@]1(O)C3	MIC	-	H37Rv	-	resazurin	VERO	6.25 µg/mL
CCOC(=O)c1c(NC(=O)c2c(F)c(F)c(F)c(F)c2F)sc2c1CCNC2=O	MIC	-	ATCC35838	-	turbidity	-	2 µM
CO[C@H]1/C=C/O[C@@]2(C)Oc3c(C)c(O)c4c(O)c(c5c(c4c3C2=O)NC2(C[C@@H](c3ccccc3)N[C@@H](c3ccccc3)C2)N=5)=NC(=O)/C(C)=C\C=C\[C@H](C)[C@H](O)[C@@H](C)[C@H](O)[C@H](C)[C@H](OC(C)=O)[C@@H]1C	MIC	-	H37Rv	-	-	-	0.02 µg/mL
N#Cc1c(NC(=O)c2c(F)c(F)c(F)c(F)c2F)sc2c1CCOC2	EC90	rpoB S522L mutant	H37Rv	-	turbidity	-	12 µM
Cn1c(NNc2nc(Nc3cccc([N+](=O)[O-])c3)nc(Nc3cccc([N+](=O)[O-])c3)n2)nc(-c2ccccc2)c(C#N)c1=O	inhibition	-	H37Rv	12.5 µg/mL	-	-	58%
CC1COc2c(N3CCN(C)CC3)c(F)cc3c(=O)c(C(=O)O)cn1c23	MIC	-	SMI 10	-	agar	-	8 µg/mL
O=C1C=CC(=NN=C(c2ccccc2)c2ccccc2)C=C1	inhibition	-	H37Rv	12.5 µg/mL	BACTEC	-	78%
CC1=C(C(=O)Nc2ccc(F)cc2)C(c2cccc([N+](=O)[O-])c2)C(C(=O)Nc2ccc(F)cc2)=C(C)N1	MIC	-	H37Rv	-	-	-	>6.25 µg/mL
CN1c2ccccc2Sc2cc(/C=C3/SC(=S)NC3=O)ccc21	inhibition	-	H37Rv	12.5 µg/mL	BACTEC	-	36%
CO[C@H]1/C=C/O[C@@]2(C)Oc3c(C)c(O)c4c(=O)c(c5oc6cc(N7CCN(CC(C)C)CC7)cc(=O)c6nc5c4c3=C2O)NC(=O)/C(C)=C\C=C\[C@H](C)[C@H](O)[C@@H](C)[C@@H](O)[C@@H](C)[C@H](OC(C)=O)[C@@H]1C	MIC	-	H37Rv-pAV (Val516 mutation)	-	-	-	≤0.015 µg/mL
CC(C)C[C@H](NC(=O)[C@@H](O)[C@H](N)Cc1ccccc1)C(=O)O	inhibition	-	H37Rv	12.5 µg/mL	BACTEC	-	-7%
Cn1c(NNc2nc(NCc3ccco3)nc(NCc3ccco3)n2)nc(-c2ccc(Cl)cc2)c(C#N)c1=O	EC50	-	H37Rv	-	-	-	>12.5 µg/mL
CCOC(=O)C(=O)/C(=C/n1c(=S)[nH]c2ccc([N+](=O)[O-])cc21)C(=O)OCC	inhibition	-	H37Rv	6.25 µg/mL	resazurin	-	-25%
CCN1CCc2c(sc(NC(=O)c3c(F)c(F)c(F)c(F)c3F)c2C(=O)NC)C1	MIC	katG Y155 truncation mutant	H37Rv	-	turbidity	-	1.7 µM
CO[C@H]1/C=C/O[C@@]2(C)Oc3c(C)c(O)c4c(O)c(c5c(c4c3C2=O)NC2(CCNCC2)N=5)=NC(=O)/C(C)=C\C=C\[C@H](C)[C@H](O)[C@@H](C)[C@@H](O)[C@@H](C)[C@H](OC(C)=O)[C@@H]1C	MIC	-	ATCC 35822 (isoniazid-resistant)	-	-	-	0.02 µg/mL
CCCCCCCCC=CCCCCCCCCNCc1ccc(F)cc1	MIC	-	H37Ra	-	-	-	>25 µg/mL
O=C1NC(NNC(=O)c2ccncc2)=N/C1=C\c1ccc(Cl)cc1	inhibition	-	H37Rv	12.5 µg/mL	resazurin	VERO	99%
O=C1[C@H](Cl)[C@@H](c2ccc(Cl)cc2)N1NC1=Nc2ccccc2Sc2ccccc21	MIC	-	H37Rv	-	broth dilution	-	100 µg/mL
CCOC(=O)c1c(NC(=O)c2c(F)c(F)c(F)c(F)c2F)sc2c1CCOC2	EC50	-	-	-	low oxygen	-	0.25 µM
Nc1ccnn2c(-c3ccccc3)nnc12	MIC bound	-	H37Rv	-	BACTEC	-	>12.5 µg/mL
C[C@@H]1CN(c2c(F)c(N)c3c(=O)c(C(=O)O)cn(C4CC4)c3c2F)C[C@H](C)N1	MIC	-	CSU15	-	-	-	≤0.125 µg/mL
CCOP(=O)(Cc1nc(C#N)c(N)o1)OCC	MIC bound	-	H37Rv	-	resazurin	-	>6.25 µg/mL
NNC(=O)c1ccncc1	MIC	-	CSU11	-	-	-	2 µg/mL
COC(=O)[C@@H]1[C@H](O)[C@H](C)C(O)[C@H](C)/C=C\C=C(/C)C(=O)Nc2c(C)c(OC(C)=O)c3c(c2O)C(=O)C(C)=C2OCOC(=C23)/C(C)=C/[C@@](C)(O)[C@H](O)[C@@H](C)[C@H]1OC(C)=O	MIC	-	H37Rv	-	BACTEC	-	≥12.8 µg/mL
CO[C@H]1/C=C/O[C@@]2(C)Oc3c(C)c(O)c4c(O)c(c5c(c4c3C2=O)NC2(C[C@@H](c3ccc(F)cc3)N[C@@H](c3ccc(F)cc3)C2)N=5)=NC(=O)/C(C)=C\C=C\[C@H](C)[C@H](O)[C@@H](C)[C@H](O)[C@H](C)[C@H](OC(C)=O)[C@@H]1C	MIC	-	H37Rv	-	-	-	0.02 µg/mL
CCOC(=O)C1N=NC(=S)NC1=S	MIC bound	-	H37Rv	-	BACTEC	-	>12.5 µg/mL
CCCCCCCCCCCCNC(CC(=O)OCC)c1ccccc1[N+](=O)[O-]	MIC	-	H37Ra	-	-	-	<25 µg/mL